Kd data for two substances are collected here from article PMC5460201, “Bacterial protease uses distinct thermodynamic signatures for substrate recognition” (Scientific Reports, 2017).

In test [1] the target is Porphyromonas endodontalis dipeptidyl peptidase 11, PeDPP11_(22-717) S652A (Porphyromonas endodontalis) (UniProt F8WQK8). In words: ITC. On the technique in general: ITC needs no label: the signal is the heat of the interaction.
Test [2] has the same target. Put plainly: ITC; 25 °C (298 K).
The target is the same in test [3]. In words: ITC; 20 °C (293 K).
Test [4] shares this target. In words: ITC; 5 °C (278 K).

The term Kd denotes a measure of binding affinity in units of concentration. A lower Kd goes with a tighter complex.

Take dipeptide LD: the Kd in test [1] and in test [2] was 1800 nM throughout.

As for substrate peptide Leu-Asp-Val-Trp, the equilibrium dissociation constant (Kd) in test [3] amounted to 5600 nM; in test [1], 2800 nM; in test [4], 17300 nM; in test [2], 2800 nM.
